Measurements reported in ChEMBL document CHEMBL2321848, “Optimization of benzyloxazoles as non-nucleoside inhibitors of HIV-1 reverse transcriptase to enhance Y181C potency” (Bioorg Med Chem Lett, 2013).

System: MT2
Assay: Cytotoxicity in human MT2 cells assessed as inhibition of cell growth
Format: cell-based

With `N#Cc1ccc(Nc2ncc(Cc3c(F)cccc3F)o2)cc1Cl` the CC50 was 10 µM.
